Measured data: PubChem BioAssay AID1259414 (Drosophila RNAi Screening Center, 2018)
Assay: 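Genome-wide screen for host control of endosymbiont load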 (primary screen). Cell system: Drosophila JW18 cells infected with Wolbachia. Knock-down reagent: long dsRNA against Drosophila genes, 0.25 µg dsRNA per well of a 384-well plate. Timing: 5 days. Treatment: cells persistently infected with Wolbachia before knock-down; no added drug. Detection: 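Imaged fluorescence in situ signal for Wolbachia 23S rRNA per DAPI-counted host cell, given as a robust z-score within each plate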. Scale: Wolbachia per cell robust z: higher = more Wolbachia per host cell than the plate typical. Active means: 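Active if absolute robust z reaches 1.5 in two or more of three replicates, leaving out multi- or no-target dsRNAs, genes unexpressed in JW18 and A1 wells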.
In all, the deposit lists about 24,000 reagents; below is a random part of those that have a named target and a result. Of all reagents, about 1,210 (5%) got an active call. 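Inactive calls also include excluded dsRNAs with several or no targets, genes unexpressed in JW18, and well A1, regardless of score.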 A plus sign joins genes that one reagent is predicted to hit. No sequences are given here.

gene | amplicon | Wolbachia per cell robust z, rep 1 | Wolbachia per cell robust z, rep 2 | Wolbachia per cell robust z, rep 3 | Call
yellow-c | DRSC41322 | 0.56 | 0.663 | 0.656 | inactive
CG12398 | DRSC19454 | -1.9 | -0.139 | -1.44 | inactive
CG8613 | DRSC07222 | -0.206 | -1.69 | -0.578 | inactive
CG8613 | DRSC28364 | -0.524 | 0.844 | -0.216 | inactive
Lcch3 + Ranbp16 | DRSC20257 | -1.62 | -5.53 | 2.69 | inactive
RagA-B (Ras-related GTP binding A/B) | DRSC14450 | -0.276 | -2.88 | -1.61 | active
Uch-L5R (Uch-L5-related) | DRSC19825 | -1.03 | -0.749 | -0.835 | inactive
CG15579 | DRSC18067 | -1.27 | 1.13 | 0.726 | inactive
CG34149 | DRSC14537 | 0.485 | -0.189 | 0.83 | inactive
CG34149 | DRSC41369 | -1.3 | -0.843 | -2.15 | inactive
CG45263 | DRSC14359 | -0.817 | 0.891 | -0.0571 | inactive
CG45263 | DRSC14360 | 1.21 | -0.308 | -0.4 | inactive
CG45263 | DRSC14361 | -0.0575 | -1.16 | 0.26 | inactive
CG45263 | DRSC14363 | -0.889 | 1.61 | -0.0388 | inactive
CG45263 | DRSC24974 | -0.93 | -0.393 | -1.38 | inactive
CG45263 | DRSC40568 | -2.5 | 0.431 | 0.0298 | inactive
CG11768 + CG34135 | DRSC38826 | 0.903 | 0.98 | -0.677 | inactive
Rpt2 (Regulatory particle triple-A ATPase 2) | DRSC16799 | 3.71 | 2.45 | 2.75 | active
Rpt2 (Regulatory particle triple-A ATPase 2) | DRSC25012 | 2.51 | 2.17 | 3.41 | active
CG4956 | DRSC15683 | -0.626 | 0.54 | -0.447 | inactive
CG4956 | DRSC24523 | -0.862 | -0.624 | -0.477 | inactive
5-HT7 (5-hydroxytryptamine (serotonin) receptor 7) | DRSC12635 | -3.88 | -0.365 | 0.232 | inactive
5-HT7 (5-hydroxytryptamine (serotonin) receptor 7) | DRSC24891 | 0.0529 | 0.242 | 0.0788 | inactive
Trmt61 (tRNA methyltransferase 61) | DRSC14888 | -3.95 | -0.505 | -3.12 | active
CG10514 | DRSC14249 | -2.49 | 0.442 | -0.586 | inactive
CG10514 | DRSC28098 | 0.116 | 0.99 | 0.938 | inactive
CG30379 | DRSC05070 | -2.28 | -1.1 | 0.186 | inactive
Dcr-2 (Dicer-2) | DRSC06992 | -3.54 | -1.38 | 0.195 | inactive
Dcr-2 (Dicer-2) | DRSC29436 | -1.11 | 0.273 | -0.198 | inactive
CG6996 | DRSC10758 | -4.23 | -0.984 | 0.647 | inactive
CG33958 | DRSC06472 | -1.53 | -2.24 | -0.304 | inactive
CG33958 | DRSC06944 | 0.65 | -0.205 | 0.37 | inactive
CG33958 | DRSC29635 | 0.64 | 0.454 | 0.624 | inactive
Osi6 (Osiris 6) | DRSC12128 | -1.22 | -2.66 | -0.141 | inactive
Osi6 (Osiris 6) | DRSC25935 | 0.174 | 0.357 | 0.721 | inactive
COX5BL (Cytochrome c oxidase subunit 5B-like) | DRSC02123 | 0.447 | -0.332 | 0.0187 | inactive
COX5BL (Cytochrome c oxidase subunit 5B-like) | DRSC27300 | 0.576 | -3.32 | 0.721 | inactive
sw (short wing) | DRSC20388 | -3.91 | -0.321 | 0.508 | inactive
CG31741 | DRSC02887 | -0.0712 | -4.5 | -0.889 | inactive
kmg (kumgang) | DRSC02829 | -0.11 | -4.81 | -0.237 | inactive
Gr93a (Gustatory receptor 93a) | DRSC14593 | -2.08 | -1.14 | -1.67 | inactive
CG6136 | DRSC15975 | -0.409 | -1.01 | 0.302 | inactive
Su(var)3-7 (Suppressor of variegation 3-7) | DRSC16872 | -3.4 | -3.66 | -1.06 | active
CG32081 | DRSC09861 | 1.14 | 0.861 | 0.593 | inactive
CG34453 | DRSC38689 | -0.262 | -3.43 | 0.547 | inactive
CG2701 | DRSC18590 | 0.196 | 0.491 | -0.553 | inactive
CG13921 | DRSC08390 | 0.594 | 1.02 | 0.937 | inactive
CG13921 | DRSC25529 | 0.314 | 0.983 | -0.396 | inactive
CG15742 | DRSC19708 | -0.0643 | 0.0551 | 0.743 | inactive
CG15742 | DRSC28195 | 0.0982 | 0.682 | 0.497 | inactive
CG10467 | DRSC09728 | -0.0983 | 0.258 | -1.54 | inactive
Hap40 (Huntingtin-associated protein 40 kDa) | DRSC20085 | -3.72 | 1.06 | -0.655 | inactive
Hap40 (Huntingtin-associated protein 40 kDa) | DRSC26124 | -0.101 | -0.877 | -0.929 | inactive
phr6-4 ((6-4)-photolyase) | DRSC03589 | -0.485 | -0.579 | 0.178 | inactive
phr6-4 ((6-4)-photolyase) | DRSC26873 | 1.39 | 1.71 | 0.38 | inactive
CCHa1-R (CCHamide-1 receptor) | DRSC06456 | -1.15 | 0.566 | 0.444 | inactive
CCHa1-R (CCHamide-1 receptor) | DRSC06715 | -0.288 | -0.656 | -1.41 | inactive
CG43693 | DRSC09086 | 0.889 | 0.497 | 0.364 | inactive
CG43693 | DRSC10625 | 0.452 | 0.44 | 0.37 | inactive
CG43693 | DRSC38675 | 0.729 | 1.39 | 0.833 | inactive
CG43693 | DRSC41478 | 0.161 | -1.83 | -0.032 | inactive
CR43105 (pseudo) | DRSC40550 | -1.15 | 0.806 | 0.0771 | inactive
CG33177 | DRSC19949 | 0.305 | 0.516 | 0.396 | inactive
Not10 (CCR4-NOT transcription complex subunit 10) | DRSC14129 | -2.3 | 0.0969 | -0.396 | inactive
Gyc89Da (Guanylyl cyclase at 89Da) | DRSC15008 | -4.99 | -0.454 | -1.44 | inactive
CG5282 | DRSC11775 | -2.29 | -0.876 | -3.11 | inactive
AstA-R2 (Allatostatin A receptor 2) | DRSC14171 | -2.84 | -0.734 | 0.00253 | inactive
AstA-R2 (Allatostatin A receptor 2) | DRSC24820 | 0.396 | 0.84 | -0.263 | inactive

Just “Wolbachia per cell robust z, rep 3”, for 6 of the entries above:
CG2701 [DRSC18590]: -0.553
CG13921 [DRSC08390]: 0.937
CG13921 [DRSC25529]: -0.396
CG15742 [DRSC19708]: 0.743
CG15742 [DRSC28195]: 0.497
CG10467 [DRSC09728]: -1.54
